# PubChem BioAssay AID1259414, Drosophila RNAi Screening Center – 2018
# Test: 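Fly genes that alter Wolbachia amount inside host cells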 (primary screen)
# Cell system: Drosophila JW18 cells infected with Wolbachia
# Reagents: long dsRNA against Drosophila genes, 0.25 µg dsRNA per well of a 384-well plate
# Timing: 5 days
# Conditions: cells persistently infected with Wolbachia before knock-down; no added drug
# Measured: 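Automated imaging of bacterial rRNA staining divided by host cell count, reported as plate-normalised robust z-score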
# Reading the numbers: Wolbachia per cell robust z: higher = more Wolbachia per host cell than the plate typical
# Hit rule: 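Hit when robust z is 1.5 or more, or -1.5 or less, in at least two of three replicates; excludes dsRNAs with several or no targets, genes not expressed in JW18 and well A1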
# In all, the deposit lists about 24,000 reagents; shown is a random part of those with a known target gene and a result. Of all reagents, about 1,210 (5%) were called active. 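Inactive calls also include excluded dsRNAs with several or no targets, genes unexpressed in JW18, and well A1, regardless of score.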 A plus sign joins genes that one reagent is predicted to hit. Reagent sequences are not shown.
"Wolbachia per cell robust z, rep 1","Wolbachia per cell robust z, rep 2","Wolbachia per cell robust z, rep 3",outcome,target gene,amplicon
0.17,1.02,1.73,inactive,put (GeneID 41772),DRSC17039
0.086,-1.23,0.00303,inactive,put (GeneID 41772),DRSC40736
-0.151,-1.37,-4.29,inactive,mRpL22 (GeneID 32662),DRSC19915
0.451,0.118,-0.163,inactive,mRpL22 (GeneID 32662),DRSC26399
-0.0934,0.0506,0.37,inactive,Pph13 (GeneID 33239),DRSC23162
0.37,-0.155,1.54,inactive,Pph13 (GeneID 33239),DRSC29483
-1.83,0.952,-4,active,CG31288 (GeneID 318664),DRSC14667
-0.054,-0.686,-0.296,inactive,CG31288 (GeneID 318664),DRSC27373
0.313,-0.621,-0.544,inactive,betaNACtes6 (GeneID 318107),DRSC22925
-0.383,-1.11,-0.548,inactive,betaNACtes6 (GeneID 318107),DRSC26649
-0.228,-0.221,0.157,inactive,edin (GeneID 317900),DRSC09488
1.81,1.11,0.693,inactive,CG5404 (GeneID 41901),DRSC15793
0.409,1.28,0.963,inactive,CG5404 (GeneID 41901),DRSC28832
1.26,0.982,1.06,inactive,Elba3 (GeneID 33670),DRSC00469
-1.44,-0.416,0.459,inactive,lncRNA:CR42765 (GeneID 19835759),DRSC41429
0.955,0.402,0.496,inactive,UQCR-14L (GeneID 43369),DRSC15288
-3.72,0.199,0.139,inactive,UQCR-14L (GeneID 43369),DRSC22425
-1,-0.63,-1.79,inactive,UQCR-14L (GeneID 43369),DRSC25417
-1.09,-0.553,-0.107,inactive,Alp8 (GeneID 37540),DRSC04353
-0.268,-0.349,-0.342,inactive,Alp8 (GeneID 37540),DRSC27635
1.58,1.19,0.63,inactive,Alp8 (GeneID 37540),DRSC41594
0.15,1.26,0.789,inactive,CG2321 (GeneID 43471),DRSC15439
-6.11,-0.202,-1.07,inactive,Rab14 (GeneID 34840),DRSC03403
0.529,-0.386,0.384,inactive,Rab14 (GeneID 34840),DRSC28941
-3.77,0.592,-5.32,active,Con (GeneID 38590),DRSC08652
0.331,0.558,-0.616,inactive,MED21 (GeneID 3354977),DRSC37928
0.0739,-9.5,1.02,inactive,Pgant7 (GeneID 32836),DRSC19991
-2.8,-0.685,-0.431,inactive,Kpc2 (GeneID 37261),DRSC07635
-0.6,-0.155,0.0249,inactive,CG42814 (GeneID 10178958),DRSC15940
1.91,2.84,0.776,inactive,CG7368 (GeneID 39301),DRSC10826
0.281,0.212,-4.7,inactive,CG7368 (GeneID 39301),DRSC22821
-2.1,-0.138,-1.08,inactive,CG7368 (GeneID 39301),DRSC29098
0.141,0.302,-0.28,inactive,Vha26 (GeneID 40679),DRSC12371
-0.514,1.33,1.88,inactive,Vha26 (GeneID 40679),DRSC25503
0.561,1.53,2.26,inactive,Vha26 (GeneID 40679),DRSC38973
-0.306,0.863,1.06,inactive,Tengl1 (GeneID 318883),DRSC00481
-0.761,-0.334,-0.604,inactive,CYLD (GeneID 34380),DRSC02870
0.589,0.31,-0.609,inactive,Polr3I (GeneID 32678),DRSC19922
1.04,-0.704,0.936,inactive,Lst8 (GeneID 31903),DRSC18262
-1.01,0.133,-5.1,inactive,CG4617 (GeneID 31657),DRSC18377
-1.73,-6.66,-3.19,active,CG4617 (GeneID 31657),DRSC23828
0.302,-0.31,-0.386,inactive,CG17600 (GeneID 33141),DRSC20640
-0.597,-9.66,0.0223,inactive,CG17600 (GeneID 33141),DRSC22753
-0.312,-0.289,-6.32,inactive,CG17600 (GeneID 33141),DRSC27203
1.17,0.838,-0.896,inactive,CG8475 (GeneID 34114),DRSC03091
-0.00871,-0.75,-1.79,inactive,Tcs5 (GeneID 38600),DRSC09774
-0.382,-1.32,-0.53,inactive,CG18259 + CG6961,DRSC20019
-1.52,1.29,0.553,inactive,CG17190 (GeneID 42386),DRSC15184
-0.277,0.332,0.471,inactive,Efa6 (GeneID 42665),DRSC13569
-3.93,-0.182,0.717,inactive,Efa6 (GeneID 42665),DRSC16141
-5.39,0.769,-0.0877,inactive,Efa6 (GeneID 42665),DRSC29705
-0.489,0.75,0.752,inactive,Vps33B (GeneID 43077),DRSC15722
2.29,-0.159,1.02,inactive,MED26 (GeneID 43816),DRSC17126
0.0615,1.2,1.12,inactive,MED26 (GeneID 43816),DRSC17147
0.802,0.421,0.449,inactive,MED26 (GeneID 43816),DRSC17148
0.123,-0.904,0.427,inactive,CG30423 (GeneID 246605),DRSC04013
0.698,0.559,0.459,inactive,Eig71Eh (GeneID 39709),DRSC11155
-0.616,-0.893,0.45,inactive,CG13622 (GeneID 42923),DRSC14624
0.296,0.0389,0.429,inactive,CG13622 (GeneID 42923),DRSC27082
-0.0745,0.865,1.59,inactive,Mps1 (GeneID 42126),DRSC16273
-4.9,-5.68,-1.08,active,Naam (GeneID 42348),DRSC16252
0.402,-0.243,0.0698,inactive,Hsp23 (GeneID 39077),DRSC11188
1.83,0.233,0.764,inactive,Hsp23 (GeneID 39077),DRSC29302
0.828,0.946,-1.19,inactive,CG15570 (GeneID 31366),DRSC18058
0.293,-0.405,0.956,inactive,CG17047 (GeneID 36478),DRSC06648
0.755,0.688,0.105,inactive,CG17931 + CG42446,DRSC28824
0.33,0.0242,-0.0396,inactive,CG6689 (GeneID 41345),DRSC16095
0.348,-1.15,-0.0785,inactive,CG6689 (GeneID 41345),DRSC28313
0.0485,-6.65,-1.24,inactive,CG3984 (GeneID 41821),DRSC15530
0.0265,-1.52,-0.294,inactive,Drsl4 (GeneID 317954),DRSC08034
0.0909,-1.43,-0.587,inactive,Drsl4 (GeneID 317954),DRSC27159
-0.353,0.369,-0.218,inactive,Grx3 (GeneID 34745),DRSC02966
-0.089,-0.369,0.261,inactive,MCTS1 (GeneID 31536),DRSC18393
-0.154,0.578,-5.64,inactive,ChAT (GeneID 42249),DRSC16609
-0.703,-1.76,-1.47,inactive,ChAT (GeneID 42249),DRSC22755
1.26,-0.38,2.36,inactive,CG1116 (GeneID 40622),DRSC12166
-0.524,-0.683,-2.96,inactive,CG14043 (GeneID 33714),DRSC02368
1.28,0.416,1.03,inactive,CG14043 (GeneID 33714),DRSC29925
0.904,1.27,0.355,inactive,CG3634 (GeneID 40301),DRSC11747
0.352,-1.9,0.982,inactive,bin3 (GeneID 35552),DRSC04919
-1.03,-0.987,0.102,inactive,beta-PheRS (GeneID 42888),DRSC15859
-1.91,-0.867,-0.721,inactive,beta-PheRS (GeneID 42888),DRSC26218
0.62,1.17,-3.66,inactive,CG9863 + CG3502,DRSC04578
0.404,0.663,-4.97,inactive,Sk1 (GeneID 32089),DRSC19774
0.172,1.23,-1.23,inactive,CG8910 (GeneID 36896),DRSC07414
-1.22,-0.917,0.0295,inactive,CG8910 (GeneID 36896),DRSC28591
-4.66,0.417,0.433,inactive,Swim (GeneID 37537),DRSC04334

Records above called active, once more:
"Wolbachia per cell robust z, rep 1","Wolbachia per cell robust z, rep 2","Wolbachia per cell robust z, rep 3",outcome,target gene,amplicon
-1.83,0.952,-4,active,CG31288 (GeneID 318664),DRSC14667
-3.77,0.592,-5.32,active,Con (GeneID 38590),DRSC08652
-1.73,-6.66,-3.19,active,CG4617 (GeneID 31657),DRSC23828
-4.9,-5.68,-1.08,active,Naam (GeneID 42348),DRSC16252
